Anti-infective test results gathered from many reports (values: NIAID ChemDB through PubChem).

Common to all: growth or infection tests; organism: HIV-1

Fold resistance has wild type as its base. ECn: concentration that inhibits the pathogen or its effect by n%. Conditions beyond the fields shown may differ between rows. Blank or dashed fields: not listed here.

structure	strain	mutations	cells	method	read-out	value
Cc1cc(OCCCS(N)(=O)=O)ccc1NC(=O)COc1ccc(Cl)cc1C(=O)c1cc(F)cc(C(F)(F)F)c1	HXB2	RT-V108I Y181C	HeLa + HELA CD4+	β-galactosidase	fold resistance	~1
CC(C)=CCOc1cc(NC(=S)c2ccsc2C)ccc1Cl	NL4-3	RT-Y188C	CEM + CEM-SS	p24	fold resistance	1
O=C1Nc2ccc(F)c(F)c2[C@@](C#CC2CC2)(C(F)(F)F)N1		RT-K103N			fold resistance	12.2
Cc1cc2cn[nH]c2cc1NC(=O)COc1ccc(Cl)cc1C(=O)c1cccc(C#N)c1	HXB2	RT-L100I	HeLa + HELA CD4+	β-galactosidase	fold resistance	~1
O=C1Nc2ccc(Cl)cc2[C@@](/C=C/C2CC2)(C(F)(F)F)N1		RT-Y181C			EC90	<0.012 µM
O=C(N[C@@H](Cc1ccccc1)C(=O)C(F)(F)C(Cc1ccccc1)NS(=O)(=O)c1ccccc1)OC1COCOC1	IIIB		CEM	p24	EC90	1 µM
Cc1cc(S(N)(=O)=O)ccc1NC(=O)COc1ccc(Cl)cc1C(=O)c1cc(F)cc(C(F)(F)F)c1	HXB2 (RT-K103N Y181C) Recombinant	RT-K103N Y181C	HeLa + HELA CD4+	β-galactosidase	fold resistance	~1
CC(C)CN(CC(O)CCc1ccccc1C(=O)NC(C)(C)C)S(=O)(=O)c1ccccc1	IIIB		CEM	p24	EC90	1 µM
CCC(=O)c1ccc(F)c([C@@H]2C[C@@H]2NC(=O)Nc2ccc(C#N)cn2)c1O	LAI	NNRTI-resistant (RT Y181C/G190A)	TZM-bl	β-galactosidase / luminescence	fold resistance	1.9
COc1ccc(S(=O)(=O)N(CC(C)C)C[C@@H](O)CCN(CC2CCCC2)S(=O)(=O)Cc2nc[nH]c2C)cc1	IIIB		CEM	p24	EC90	1 µM
Cc1cc(C)cc(C(=O)c2cc(Cl)ccc2OCC(=O)Nc2ccc(S(N)(=O)=O)cc2C)c1	HXB2	RT-V106I Y181C	HeLa + HELA CD4+	β-galactosidase	fold resistance	~1
Nc1ccc(S(=O)(=O)N(CC[C@H](O)CN(CC2CCCC2)S(=O)(=O)c2ccc(N)cc2)CC2CCCC2)cc1	IIIB		CEM	p24	EC90	1 µM
Cc1cc2[nH]cnc2cc1NC(=O)COc1ccc(Cl)cc1C(=O)c1cc(F)cc(C(F)(F)F)c1	HXB2	RT-V108I Y181C	HeLa + HELA CD4+	β-galactosidase	fold resistance	~1
COc1ccc(S(=O)(=O)N(CC(O)CN(Cc2ccccc2)C(=O)OC2COCOC2)CC2CCCC2)cc1	IIIB		CEM	p24	EC90	1 µM
O=C(O)c1cc(-n2cccc2)ccc1Cl	SF162 R5 CLADE B		PBMC/5.25M7	luciferase / cell fusion	EC90	150 µM

A second listing of 2 rows from above:

structure,strain,mutations,cells,method,read-out,value
Cc1cc(C)cc(C(=O)c2cc(Cl)ccc2OCC(=O)Nc2ccc(S(N)(=O)=O)cc2C)c1,HXB2,RT-V106I Y181C,HeLa + HELA CD4+,β-galactosidase,fold resistance,~1
O=C1Nc2ccc(Cl)cc2[C@@](/C=C/C2CC2)(C(F)(F)F)N1,,RT-Y181C,,,EC90,<0.012 µM